B1: anti-S1 (SARS-CoV-2) scFv clone #20 (scFv)
scFv: SYVLTQPPSASGTPGQRVTISCSGSSSNIGSNTVNWYQQLPGTAPKLLIYSNNQRPSGVPDRFSASKSGTSASLAISGFQSEDEADYYCAAWDDSLDGYVFGTGTKVTVLGSRGGGGSGGGGSGGGGSLEMAEVQLVQSGAEVKKPGESLKISCKGSGYSFPSYWIGWVRQMPGKGLEWMGIIYPGDSDTRYSPSFQGQVTISADKSISTAYLQWSSLKASDTAMYYCARGSYTYMGGSYDYWGQGTLVTVSSTSGQAGQ
notes: also called phage clone #20
B2: anti-S1 (SARS-CoV-2) scFv clone #19 (scFv)
scFv: QSALTQPASVSGSPGQSITISCTGTSSDVGGYNYVSWYQQHPGKVPKLMIYEVSNRPSGVSNRFSGSKSGNTASLTISGLQAEDEADYYCSSYTSGDTLVFGGGTKVTVLGSRGGGGSGGGGSGGGGSLEMAELQLVESGGGVVQPGRSPRLSCAASGFTFSNYPMHWVRQAPGKGLEWVAVISYDGNHKYYADSLEGRFSISRDNSKNTLYLQMNSLTAADTAVYYCARGGGMGGLDSWGQGTLVTVSSTSGQAGQ
notes: also called phage clone #19
B3: anti-S1 (SARS-CoV-2) scFv clone #13 (scFv)
scFv: QSVLTQPPSASGTPGQRVTISCSGSSSNIGSNYVYWYQQLPGTAPKLLIYRNNQRPSGVPDRFSGSKSGTSASLAISGLRSEDEADYYCAAWDDSLSGPNYVFGTGTKVTVLGSRGGGGSGGGGSGGGGSLEMAQVQLVQSGAEVKKPGSSVKVSCKASGGTFSSYAISWVRQAPGQGLEWMGWISGYNGNTNYAQKLQGRVTMTTDTSTSTAYMELRSLRSDDTAVYYCARTGWSKGEKVTTWGEWFYVDYWGQGTLVTVSSTSGQAGQ
notes: also called phage clone #13
B4: anti-S1 (SARS-CoV-2) scFv clone #30 (scFv)
scFv: QSALTQPPSASGSPGQSVTISCTGTSSDVGGYDYVSWYQQHPGKAPKLMIYEVSKRPSGVSNRFSGSKSGNTASLTISGLQAEDEADYYCSSYTSSSTFPYVFGTGTKVTVLGSRGGGGSGGGGSGGGGSLEMAEVQLVESGGGLEQPGGSLRLSCAASGFTFSSYAMSWVRQAPGKGLEWVSAISASGNSTFYADSVKGRFTISRDNSKHTLDLQMNSLRADDTAVYYCARNSDVWGQGTLVTVSSTSGQAGQ
notes: also called phage clone #30

Target: SARS-CoV Spike/S1 Protein (SARS-CoV, UniProt P59594 14-667)
Test: not given

Binder | binding result
B1 | no binding
B2 | no binding
B3 | no binding
B4 | no binding

Target: S1 subunit polypeptide of SARS-CoV-2 spike protein (isolate 2019-nCoV, WIV4) (SARS-CoV-2 (isolate 2019-nCoV, WIV4), UniProt P0DTC2 16-685)
Test: phage ELISA, specificity panel (FIG. 2)

Binder | binding result
B1 | binds
B2 | binds
B3 | binds
B4 | binds

From patent US20220119501A1 (INVISISHIELD TECHNOLOGIES, published 2022)
